A mixed list of measured activities; the numbers were collected in NIAID ChemDB.

Shared fields: tests in culture; organism: HIV-1; read-out: EC50

ECn is the concentration giving n% inhibition of infection, replication or growth.

smiles	cells	strain or isolate	mutations	value
c1cc(CN2CCCNCCNCCCNCC2)ccc1CN1CCCNCCNCCCNCC1	MT-4	NL4-3	L-CA resistant	0.02 µM
CCOC(=O)c1cc(C#N)cc(C(=O)c2cc(Cl)ccc2OCC(=O)Nc2ccc(S(N)(=O)=O)cc2C)c1	HeLa	-	K103N	0.0012 µM
Cc1cn([C@H]2C[C@H](N=[N+]=[N-])[C@@H](CO)O2)c(=O)[nH]c1=O	-	IIIB S0561945	-	0.003 µM
C[C@H](Cn1cnc2c(N)ncnc21)OCP(=O)(O)O	MDM	NL4-3	+Vpx	5.599 µM
CC(C)(C)NC(=O)[C@@H]1C[C@@H]2CCCC[C@@H]2CN1C[C@@H](O)[C@H](Cc1ccccc1)NC(=O)[C@H](CC(N)=O)NC(=O)c1ccc2ccccc2n1	PBMC	MVP5180 (PR L10I K20C M36I L63T I64V A71V)	PR-L10I K20C M36I L63T I64V A71V	0.013 µM
Cc1cc(S(N)(=O)=O)ccc1NC(=O)COc1ccc(Cl)cc1C(=O)c1cc(C#N)cc(CO)c1	HeLa	-	V106A	0.067 µM
Cc1ccnc2c1NC(=O)c1cccnc1N2C1CC1	-	NL4-3	DS-resistant	0.02 µM
C[C@H](Cn1cnc2c(N)ncnc21)OCP(=O)(O)O	MT-4	IIIB	-	5.9 µM
COc1ccc(-n2c(C)nnc2SCC(=O)Nc2ccccc2Br)c2ccccc12	HeLa	-	Y188L	0.457 µM
Nc1nc(=O)n([C@@H]2CS[C@H](CO)O2)cc1F	MT-4	IIIB	-	0.5 µM
Cc1cc(S(N)(=O)=O)ccc1NC(=O)COc1ccc(Cl)cc1C(=O)c1cc(C#N)cc(OCF)c1	HeLa	-	K103N	0.0016 µM
CO[P@](=O)(c1cc(C)cc(/C=C/C#N)c1)c1c(C(N)=O)[nH]c2ccc(Cl)c(F)c12	MT-4	BH10	Y181C	0.0018 µM
Cc1cc(S(N)(=O)=O)ccc1NC(=O)COc1ccc(Cl)cc1C(=O)c1cc(C#N)cc(C(=O)N2CCCC2)c1	HeLa	-	WTRVA	0.048 µM
O=C1O[C@H]2[C@@H]3OC(=O)c4cc(O)c(O)c(O)c4-c4c(cc(O)c(O)c4O)C(=O)OC[C@H]2O[C@@H](OC(=O)c2cc(O)c(O)c(O)c2)[C@@H]3OC(=O)c2cc(O)c(O)c3c2[C@@H]2C1=CC(=O)[C@](O)(O3)C2(O)O	MAGI	NRTI resistant (RT M41I L74V V106A T215V) ARP146	RT-M41I L74V V106A T215V	0.71 µg/mL
Cc1ccc(-n2c(SCC(=O)Nc3ccc(C)cc3Br)nnc2C(F)(F)F)cc1	HeLa	-	-	0.0004 µM
Cc1nnc(C(=O)NC(C)(C)c2nc(C(=O)NCc3ccc(F)cc3)c(O)c(=O)n2C)o1	Primary T lymphocytes	NL4-3	+Vpx	0.015 µM
COC(=O)c1cc(C#N)cc(C(=O)c2cc(Cl)ccc2OCC(=O)Nc2ccc(S(N)(=O)=O)cc2C)c1	HeLa	-	K103N	0.0014 µM
CC(C)c1nc(CN(C)C(=O)N[C@H](C(=O)N[C@@H](Cc2ccccc2)C[C@H](O)[C@H](Cc2ccccc2)NC(=O)OCc2cncs2)C(C)C)cs1	-	PERE98287RT Recombinant	-	0.1 µM
Cc1cn([C@H]2C[C@H](N=[N+]=[N-])[C@@H](CO)O2)c(=O)[nH]c1=O	PBMC	BCF11	RT-A98G K103R	0.01 µM
Cc1cc(S(N)(=O)=O)ccc1NC(=O)COc1ccc(Cl)cc1C(=O)c1cc(C#N)cc(OC(F)F)c1	HeLa	-	WTRVA	0.0009 µM
Nc1nc(=O)n([C@@H]2CS[C@H](CO)O2)cc1F	TZM-bl	LAI	E138Q	0.4 µM
COc1ccc(S(=O)(=O)N(CC(C)C)C[C@@H](O)[C@H](Cc2ccccc2)NC(=O)O[C@H]2CO[C@H]3OCC(F)(F)[C@H]32)cc1	PBMC	ERS104pre	L63P	0.0023 µM
c1cc(CN2CCCNCCNCCCNCC2)ccc1CN1CCCNCCNCCCNCC1	-	NL4-3	AMD3100-resistant	>1.3 µM
O=c1[nH]cnc2c1ncn2[C@H]1CC[C@@H](CO)O1	MDM	NL4-3	+Vpx	2.251 µM
CC(C)(C)OC(=O)N[C@@H](Cc1ccccc1)[C@H](O)CNC[C@@H](O)[C@H](Cc1ccc(OCC(=O)N2CCOCC2)cc1)NC(=O)OC(C)(C)C	MT-2	RF	PR-G48V A71T V82A	3.72 µM
Nc1nc2c(ncn2CCOCP(=O)(O)O)c(=O)[nH]1	CEM	HE	-	1.4 µM
Nc1ccn([C@@H]2CC[C@H](CO)O2)c(=O)n1	HT4 + HT4 LacZ-1	74V (RT-L74V)	RT-L74V	6.3 µM
Cc1cc(OC[C@H]2CNCCO2)ccc1NC(=O)COc1ccc(Cl)cc1C(=O)c1cc(C#N)cc(OC(F)F)c1	HeLa	-	V106A	0.0031 µM
Nc1nc(NC2CC2)c2ncn([C@H]3C=C[C@@H](CO)C3)c2n1	MDM	NL4-3	-	0.003 µM
CC(C)CN(C[C@@H](O)[C@H](Cc1ccccc1)NC(=O)O[C@H]1CCOC1)S(=O)(=O)c1ccc(N)cc1	MT-4	NL4-3	L10F M46I I54V V82A LPV resistant	0.033 µM
CCc1ccc(-n2c(C)nnc2SCC(=O)Nc2ccc(C)cc2Cl)c2ccccc12	HeLa	-	Y188L	0.11 µM
CC(C)CN(C[C@@H](O)[C@H](Cc1ccccc1)NC(=O)O[C@H]1CO[C@H]2OCC(F)(F)[C@H]21)S(=O)(=O)c1ccc(N)cc1	MT-4	NL4-3	M46I I50V N38K M36I GRL05010-resistant	0.036 µM
Cc1cc(/C=C/C#N)cc(C)c1Nc1ccnc(Nc2ccc(C#N)cc2)n1	TZM-bl	LAI	E138R	1.6 µM
Cc1ccc(-n2c(SCC(=O)Nc3ccc(S(N)(=O)=O)cc3Cl)nnc2C(F)(F)F)c2ccccc12	HeLa	-	Y188L	0.025 µM
Cc1ccnc2c1NC(=O)c1cccnc1N2C1CC1	PBMC	LAI	-	<0.01 µM
Nc1nc2c(ncn2[C@H]2CO[C@@H](CO)O2)c(=O)[nH]1	MT-2	-	RT-M184V	0.75 µM
Cc1cc(S(N)(=O)=O)ccc1NC(=O)COc1ccc(Cl)cc1C(=O)c1cc(C#N)cc(OC(F)(F)F)c1	HeLa	-	WTRVA	0.00009 µM
Cc1cn([C@H]2C[C@H](N=[N+]=[N-])[C@@H](CO)O2)c(=O)[nH]c1=O	MT-2	RF	-	0.005–0.15 µg/mL
Cc1ccnc2c1NC(=O)c1cccnc1N2C1CC1	MT-4	-	RT-L74V K103N	<3 µM
CC1=C(C(=O)Nc2ccc(Cl)c(C(=O)OC(C)C)c2)SCCO1	MT-2	RF	-	2 µM
CC(=O)c1cc(C#N)cc(C(=O)c2cc(Cl)ccc2OCC(=O)Nc2ccc(S(N)(=O)=O)cc2C)c1	HeLa	-	V106A	0.021 µM

2 of the rows above, restated:

smiles,cells,strain or isolate,mutations,value
COc1ccc(S(=O)(=O)N(CC(C)C)C[C@@H](O)[C@H](Cc2ccccc2)NC(=O)O[C@H]2CO[C@H]3OCC(F)(F)[C@H]32)cc1,PBMC,ERS104pre,L63P,0.0023 µM
c1cc(CN2CCCNCCNCCCNCC2)ccc1CN1CCCNCCNCCCNCC1,-,NL4-3,AMD3100-resistant,>1.3 µM

Two numbers with a dash give a range or band. Conditions beyond the fields shown may differ between rows. Blank or dashed fields: not listed here.